# Laboratory results from the supplement of paper PMC9931576.
# Positions count from the first letter of the chain named. Human monoclonal antibodies against the spike receptor-binding domain (heavy:light variable regions). IC50 against pseudoviruses bearing the spike of naturally observed variants; lower = stronger; >10 µg/ml means not reached at the top dose. No active / inactive call. The stated detection limit is 0.0005 µg/ml; values near or below 0.001 µg/ml lie at the floor of the assay.
# B1: BD56-151 (protein)
# chain 1: QVQLVQSGAEVKKPGASVKVSCKASGYTFTSYYIHWVRQAPGQGLEWMGLINPTEGSTSYAQKVQGRVTLTRDTSTSTVYMELSSLRSEDTAVYYCARSLIAPVEDWFDPWGQGTLVTVS
# chain 2: SYVLTQPPSVSVAPGKTARITCGGNNIGSKSVHWYQQRPGQAPVLVIYYDNDRPSGIPERFSGSNSGNTATLTISRVEAGDEADYYCQVWDGSGVHYVFGTGTKVTVL
# B2: BD56-134 (protein)
# chain 1: QVQLVESGGGVVQPGKSLRLSCAASGFNFDNFAMHWVRQAPGKGLEWVAVISFDASNKYVADSVKGRFTISRDNSKNTLDLQMISLRPEDTAVYYCARDRSMGDVSALTSGCPEYWGQGTLVTVSS
# chain 2: DIQMTQSPSSLSASVGDRVTITCQASQDISSYLNWYQQKPGKAPRLLIYDASNLKTGVPSRFSGSGSGTDFTFTISSLQPEDIATYYCQQYDSLPPLTFGGGTKVEIK
# B3: BD56-125 (protein)
# chain 1: QLQLQESGPGLVKPSETLSLTCTVSGDSVSRTYSYWGWIRQPPGKGLEWIGSISYSGNTYYNPSLKSRFTISLDTSKNHFSLKMRYVTAADTAVYYCARPEWNTVTTGSFDLWGRGTLVAVSS
# chain 2: QSVLTQPPSASGTPGQRVTISCSGTDSNIGSNFVSWYQQVPGAAPKLLIYSTSQRPSGVPDRFSGSKSGTSASLAISGLRSEDEADYYCATWDDSLSGYVVFGGGTKLTVL
# B4: BD56-145 (protein)
# chain 1: QVQLQESGPGLVKPSETLSLTCTVSGGSVSSGSHYWSWIRQPPGKGLEWVGFIYYSGTTNYNPSLKNRVTISLDTSKDQFSLKLNSVTAADTAVYYCARGTRGDYNTLTAFYFWYFDLWGRGTLVTVSS
# chain 2: DIQMTQSPSSLSASVGDRVTITCRASQTISSHLNWYQQTPGKAPKLIIYAASTLQSGVPSTFSGSGSGTHFTLTISSLQPEDFATYYCQQSYSTPLTFGGGTKVEI
# B5: BD56-147 (protein)
# chain 1: QVQLVQSGAEVKKPGASVKVSCKASGYTFTGHFMFWVRQAPGQGLEWMGRINPNSGGTNYAQKFQGRVTMTRDTSISTAYMELSGLRSDDTAVYYCVREPYYDILTGSEKDNWGQGTLVTVSS
# chain 2: QSVLTQPPSASGTPGQRVTISCSGSSSNIGSSYVYWYQQLPGTAPKLLISSNNQRPSGVPDRFSGSKSGTSASLAISGLRSEDEADYYCAAWDDSLSGFYVFGTGTKVTVL
# B6: BD56-129 (protein)
# chain 1: QVHLMESGGDLVKPGGSLRLSCAASGFTFSDYYMSWIRQAPGKGLEWVSYISSSGSSIYFADSVKGRFAISRDNAKNSLYLQLNSLRAEDTAVYYCARDRSANYYGDDAFDIWGHGTMVTVSS
# chain 2: EIVLTQSPGTLSLSPGERATVSCRASHIISTSNLAWYQQKPGQAPRLLIYDASSRATGIPDRFSGSGSGTDFTLTISRLEPEDFAVYYCQQYGGSPRTFGQGTKVEIK
# B7: BD56-128 (protein)
# chain 1: QVQLVESGGGLVKPGGSLKLSCAASGFTFSDHDMSWIRQAPGKGLEWISYINTDGSGIYYTDSVKGRFTISRDNAKNSLHLHMNSLRAEDTAVYYCARDPAFCTGGSCYSRDYFDYWGQGTLVTVSS
# chain 2: SYVLTQPSSVSVAPGKTARITCGGDDIGSKSVHWYQQRPGQAPVLVIHSDNDRPSGIPERYTGSNSGNTATLIISRVEAGDEADYYCQLWDGSVGHRVFGGGTKLTVL
# B8: BD56-124 (protein)
# chain 1: QVQLVQSGAEVRKPEASVKVSCKASGYTFTGYFIHWVRQAPGQGLEWLGWINPNSGGTSSAQKFQGRVTMTRDTSVTTAYMELSRLRSDDTAIYYCAREKNTGYIDFDPWGAFDVWGRGTMVTV
# chain 2: QSALTQPASVSGSPGQSITISCTGTSSDVATYDLVSWYQQHPGKVPKLLIYEVTKRPSGVSDRFSGSKSGNTASLTISGLQAEDEADYYCCSYAGSGRVFGGGTKLTVL
# B9: BD56-140 (protein)
# chain 1: QAQLVQSGAEVGKPGASVKVSCKASGFTFTGYFIHWVRQAPGQGLEWVGWINPDSGGASYAQKFHGRVTMTRDTSISTAYMELSRLRSDDTAMYFCAREKNVGYFDFDPWGAFDLWDRGTMVTVSS
# chain 2: B8 chain 2 with A30G, L34F, V45G, L49M, G97S
# B10: BD56-123 (protein)
# chain 1: EVQLVESGGGLGQPGGSLRLSCAASGFSFSRYWMHWVRQAPGKGLVCVSSINRDGSSTGYADSVKGRFTISRDNAKNTLYLQMNSLRAEDTAVYYCARDPRHPPNWNYDPPLDYYYGMDVWGQGATVTVSS
# chain 2: SYVLTQPPSVSVAPGQTARITCGGDNIGSKSVHWYQQRPGQAPTLVIYDDSHRPSGIPERFSGSNSGNMATLTISRVEAGDEADYYCQVWESSSDHPVFGGGTKLTVL
# B11: BD56-127 (protein)
# chain 1: QVRLQQSGPGLVKPSETLSLTCTVYGGPVSSGGYSWSWIRQPPNKGLESIGSIYYSGGTNYNPSLKSRVTISVDMSKNQFSLKLSSVTAADTAVYYCAREVVPPAGNNWFDPWGQGTLVTVSS
# chain 2: SYVLTQAPSVSVAPGKTAKITCGGNEIGSKSVHWYQRKPGQAPVLVVYDDSDRPSGIPERFSGSNSGNTATLTISRVEAGDEADYYCQLWDGSSDPHVVFGGGTKVTVL
# B12: BD56-139 (protein)
# chain 1: QVQLVQSGAEVKKPGASVKVSCKTSGYVFTTHDLSWVRQAPGQGLEWMGWISAKNGNTNYAQKLQGRVTMTTDTSTSTTYMELRGLTSDDTAVYYCARARRESSGYEDDYWFDPWGQGTLVTVSS
# chain 2: SSELTQPPSVSVSPGQTARITCSGDTLPNQYVYWYQQKPGQAPVLVIYKDSERPSGIPERFSGSTSGTTVTLAISGVQAEDEADYYCQTADSRGTVFGGGTKLTVL
# Biological target: SARS-CoV-2 Omicron BA.1 spike pseudovirus
# Test: pseudovirus neutralization IC50; higher = weaker neutralization
# Procedure: (§1)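 Single-round VSV luciferase pseudovirus mixed with antibody dilutions for 1 h and put on Huh-7 cells for about a day; IC50 from the dose curve.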
row,Binder,pseudovirus neutralization IC50 [µg/mL]
1,B1,> 10
2,B2,> 10
3,B3,> 10
4,B4,> 10
5,B5,0.001
6,B6,0.6
7,B7,5.25
8,B8,3.37
9,B9,9.71
10,B10,> 10
11,B11,5.53
12,B12,> 10

# Biological target: SARS-CoV-2 Omicron BA.2 spike pseudovirus
# Test: as above
# Procedure: as §1
row,Binder,pseudovirus neutralization IC50 [µg/mL]
1,B1,> 10
2,B2,> 10
3,B3,> 10
4,B4,> 10
5,B5,0.00058
6,B6,0.473
7,B7,6.23
8,B8,3.22
9,B9,1.72
10,B10,> 10
11,B11,4.98
12,B12,> 10

# Biological target: SARS-CoV-2 Omicron BA.2.75 spike pseudovirus
# Test: as above
# Procedure: as §1
row,Binder,pseudovirus neutralization IC50 [µg/mL]
1,B1,> 10
2,B2,> 10
3,B3,> 10
4,B4,> 10
5,B5,0.000625
6,B6,0.525
7,B7,7.01
8,B8,2.09
9,B9,1.85
10,B10,> 10
11,B11,3.17
12,B12,> 10

# Biological target: SARS-CoV-2 Omicron BA.5 spike pseudovirus
# Test: as above
# Procedure: as §1
row,Binder,pseudovirus neutralization IC50 [µg/mL]
1,B1,> 10
2,B2,> 10
3,B3,> 10
4,B4,> 10
5,B5,1.16
6,B6,> 10
7,B7,6.83
8,B8,3.11
9,B9,1.81
10,B10,> 10
11,B11,4.25
12,B12,> 10

# Biological target: SARS-CoV-2 Omicron BQ.1.1 spike pseudovirus
# Test: as above
# Procedure: as §1
row,Binder,pseudovirus neutralization IC50 [µg/mL]
1,B1,> 10
2,B2,> 10
3,B3,> 10
4,B4,> 10
5,B5,1.27
6,B6,> 10
7,B7,> 10
8,B8,2.68
9,B9,1.51
10,B10,> 10
11,B11,8
12,B12,> 10

# Biological target: SARS-CoV-2 Omicron XBB spike pseudovirus
# Test: as above
# Procedure: as §1
row,Binder,pseudovirus neutralization IC50 [µg/mL]
1,B1,> 10
2,B2,> 10
3,B3,> 10
4,B4,> 10
5,B5,> 10
6,B6,5.15
7,B7,6.6
8,B8,2.65
9,B9,1.5
10,B10,> 10
11,B11,7.64
12,B12,> 10

# Biological target: SARS-CoV-2 early D614G spike pseudovirus
# Test: as above
# Procedure: as §1
row,Binder,pseudovirus neutralization IC50 [µg/mL]
1,B1,> 10
2,B2,> 10
3,B3,> 10
4,B4,6.05
5,B5,0.00346
6,B6,0.609
7,B7,6.28
8,B8,0.339
9,B9,2.17
10,B10,> 10
11,B11,6.29
12,B12,5.23
